RC index of single-base changes in HIV-1 integrase

From the data files of Al-Mawsawi et al. 2014, doi:10.1186/s12977-014-0124-6.

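Seven fragments of pNL4-3 were mutated by error-prone PCR, and each virus pool was passaged in CEM T cells. The RC index is the frequency of a change after passage round 2 divided by its frequency in the plasmid library.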

Protein: integrase of HIV-1 NL4-3, numbered from its first residue. The source prints no sequence; the chain below is taken from UniProt P12497, a closely related isolate, and fits the source at the 252 positions it covers.
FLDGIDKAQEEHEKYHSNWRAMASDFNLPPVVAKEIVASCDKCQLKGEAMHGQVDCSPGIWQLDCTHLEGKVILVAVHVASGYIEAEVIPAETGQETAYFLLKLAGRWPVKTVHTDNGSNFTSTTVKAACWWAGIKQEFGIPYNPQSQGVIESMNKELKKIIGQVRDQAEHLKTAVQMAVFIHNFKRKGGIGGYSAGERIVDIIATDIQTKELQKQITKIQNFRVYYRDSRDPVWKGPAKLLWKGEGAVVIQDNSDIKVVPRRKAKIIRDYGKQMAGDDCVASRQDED
Effects on overlapping genes or RNA elements are not listed.

Values are the RC index; higher means better tolerated. The authors read about 0.1 or less as lethal, 0.1-0.2 as attenuated and 0.2 or more as tolerated. Each entry names the wild-type residue, its position and the residue put in its place. Input reads are the counts in the plasmid library. The authors read an index above 1 as above wild type (1.9% of all changes in the genome). Base changes are numbered along pNL4-3. Clones carried about five changes per kilobase, which can drag down the index of neutral changes.

{"change": "F223L", "base": "T4896C", "input reads": "150", "replication capacity index": 0.156}
{"change": "F223Y", "base": "T4897A", "input reads": "200", "replication capacity index": 0.0270}
{"change": "R224L", "base": "G4900T", "input reads": "248", "replication capacity index": 0.153}
{"change": "V225A", "base": "T4903C", "input reads": "238", "replication capacity index": 0.0757}
{"change": "Y226N", "base": "T4905A", "input reads": "131", "replication capacity index": 0.0138}
{"change": "R228K", "base": "G4912A", "input reads": "102", "replication capacity index": 0.689}
{"change": "D229E", "base": "C4916A", "input reads": "69", "replication capacity index": 0.131}
{"change": "S230C", "base": "A4917T", "input reads": "378", "replication capacity index": 0.0286}
{"change": "S230T", "base": "G4918C", "input reads": "80", "replication capacity index": 0.0450}
{"change": "D232V", "base": "A4924T", "input reads": "457", "replication capacity index": 0.0158}
{"change": "D232E", "base": "T4925A", "input reads": "579", "replication capacity index": 0.0218}
{"change": "P233S", "base": "C4926T", "input reads": "361", "replication capacity index": 0.105}
{"change": "P233L", "base": "C4927T", "input reads": "293", "replication capacity index": 0.130}
{"change": "V234I", "base": "G4929A", "input reads": "403", "replication capacity index": 0.0780}
{"change": "V234L", "base": "G4929C", "input reads": "140", "replication capacity index": 0.144}
{"change": "W235R", "base": "T4932C", "input reads": "463", "replication capacity index": 0.0776}
{"change": "K236E", "base": "A4935G", "input reads": "394", "replication capacity index": 0.0911}
{"change": "K236N", "base": "A4937T", "input reads": "323", "replication capacity index": 0.0625}
{"change": "G237R", "base": "G4938A", "input reads": "211", "replication capacity index": 0.191}
{"change": "P238T", "base": "C4941A", "input reads": "68", "replication capacity index": 0.165}
{"change": "P238A", "base": "C4941G", "input reads": "114", "replication capacity index": 0.0591}
{"change": "P238S", "base": "C4941T", "input reads": "469", "replication capacity index": 0.115}
{"change": "P238L", "base": "C4942T", "input reads": "256", "replication capacity index": 0.105}
{"change": "A239T", "base": "G4944A", "input reads": "416", "replication capacity index": 0.0971}
{"change": "A239S", "base": "G4944T", "input reads": "216", "replication capacity index": 0.0416}
{"change": "A239E", "base": "C4945A", "input reads": "60", "replication capacity index": 0.150}
{"change": "K240T", "base": "A4948C", "input reads": "92", "replication capacity index": 0.0488}
{"change": "K240M", "base": "A4948T", "input reads": "262", "replication capacity index": 0.0514}
{"change": "L241F", "base": "C4950T", "input reads": "368", "replication capacity index": 0.0793}
{"change": "L242F", "base": "C4953T", "input reads": "246", "replication capacity index": 0.0730}
{"change": "L242H", "base": "T4954A", "input reads": "239", "replication capacity index": 0.0282}
{"change": "W243R", "base": "T4956C", "input reads": "235", "replication capacity index": 0.134}
{"change": "W243G", "base": "T4956G", "input reads": "113", "replication capacity index": 0.0596}
{"change": "K244N", "base": "A4961T", "input reads": "389", "replication capacity index": 0.0577}
{"change": "G245S", "base": "G4962A", "input reads": "282", "replication capacity index": 0.183}
{"change": "G245C", "base": "G4962T", "input reads": "268", "replication capacity index": 0.126}
{"change": "G245D", "base": "G4963A", "input reads": "407", "replication capacity index": 0.0937}
{"change": "E246G", "base": "A4966G", "input reads": "405", "replication capacity index": 0.105}
{"change": "E246D", "base": "A4967T", "input reads": "283", "replication capacity index": 0.0476}
{"change": "G247R", "base": "G4968A", "input reads": "158", "replication capacity index": 0.199}
{"change": "G247E", "base": "G4969A", "input reads": "206", "replication capacity index": 0.0980}
{"change": "A248P", "base": "G4971C", "input reads": "112", "replication capacity index": 0.0801}
{"change": "V250I", "base": "G4977A", "input reads": "215", "replication capacity index": 0.188}
{"change": "V250L", "base": "G4977C", "input reads": "117", "replication capacity index": 0.0384}
{"change": "V250A", "base": "T4978C", "input reads": "164", "replication capacity index": 0.151}
{"change": "I251L", "base": "A4980T", "input reads": "138", "replication capacity index": 0.0325}

Extract of 5 entries:

| change | base | input reads | replication capacity index |
|---|---|---|---|
| V250I | G4977A | 215 | 0.188 |
| P233L | C4927T | 293 | 0.130 |
| W243G | T4956G | 113 | 0.0596 |
| W243R | T4956C | 235 | 0.134 |
| R228K | G4912A | 102 | 0.689 |